{"source": "patent US20090221500A1", "about": "(ANGELICA THERAPEUTICS, published 2009)", "binders": {"B1": {"name": "wild type DT382 (enzyme)", "chain": "not shown"}}, "biological_target": "elongation factor-2 (EF-2) (rabbit (reticulocyte lysate))", "test": "cell-based or functional assay", "data": [{"binder": "B1", "values": [{"measurement": "IC50 (ng/12.5 µl), inhibition of protein synthesis in IVTT", "value": 20.3, "unit": "ng/12.5 µl"}]}]}
